Test system: influenza A virus
Details: influenza A/WSN/33, A549, 10 μM A3 or less

Cc1[nH]c2ccc(-c3nnc(SCC(=O)N4CCCC4)o3)cc2c1C [Compound A3]
viral titers decreased: 5 logs
